Molecular target: hNav1.5 (human), Q14524
Test: cell-based or functional assay

Row | Binder | IC50, membrane potential assay [µM] | Selectivity for Nav1.7, membrane potential assay [fold]
1 | SDCRYMFGDCEKDEDCCKHLGCKRKMKYCAWDFTFT (modifications not checked) [S0-Pnc1a] | > 30 | > 107
2 | DCRYMFGDCEKDEDCCKHLGCKKKMKYCAWDFTFT (modifications not checked) [[R23K]Pnc1a] | > 30 | > 120
3 | DCRYMFGDCEKDKDCCKHLGCKRKMKYCAWDFTFT (modifications not checked) [[E13K]Pnc1a] | > 30 | > 300
4 | DCRYMFGDCEKDADCCKHLGCKRKMKYCAWDFTFT (modifications not checked) [[E13A]Pnc1a] | > 30 | > 217
5 | DCRYMFGNCEKDEDCCKHLGCKRKMKYCAWDFTFT (modifications not checked) [[D8N]Pnc1a] | > 30 | > 1000
6 | DCRYMFGDCEKDEDCCKHLGCKRKMKYCAADFTFT (modifications not checked) [[W30A]Pnc1a] | 6 | 0.9

Molecular target: hNav1.2 (human), Q99250
Test: cell-based or functional assay

Row | Binder | IC50, membrane potential assay [µM] | Selectivity for Nav1.7, membrane potential assay [fold]
7 | SDCRYMFGDCEKDEDCCKHLGCKRKMKYCAWDFTFT (modifications not checked) [S0-Pnc1a] | 3 | 10
8 | DCRYMFGDCEKDEDCCKHLGCKKKMKYCAWDFTFT (modifications not checked) [[R23K]Pnc1a] | 3 | 14
9 | DCRYMFGDCEKDKDCCKHLGCKRKMKYCAWDFTFT (modifications not checked) [[E13K]Pnc1a] | 0.378 | 4
10 | DCRYMFGDCEKDADCCKHLGCKRKMKYCAWDFTFT (modifications not checked) [[E13A]Pnc1a] | 0.566 | 4
11 | DCRYMFGNCEKDEDCCKHLGCKRKMKYCAWDFTFT (modifications not checked) [[D8N]Pnc1a] | 0.147 | 6
12 | DCRYMFGDCEKDEDCCKHLGCKRKMKYCAADFTFT (modifications not checked) [[W30A]Pnc1a] | 24 | 3

Molecular target: hNav1.6 (human), Q9UQD0
Test: cell-based or functional assay

Row | Binder | IC50, membrane potential assay [µM] | Selectivity for Nav1.7, membrane potential assay [fold]
13 | SDCRYMFGDCEKDEDCCKHLGCKRKMKYCAWDFTFT (modifications not checked) [S0-Pnc1a] | 19 | 68
14 | DCRYMFGDCEKDEDCCKHLGCKKKMKYCAWDFTFT (modifications not checked) [[R23K]Pnc1a] | 16 | 63
15 | DCRYMFGDCEKDKDCCKHLGCKRKMKYCAWDFTFT (modifications not checked) [[E13K]Pnc1a] | 1 | 14
16 | DCRYMFGDCEKDADCCKHLGCKRKMKYCAWDFTFT (modifications not checked) [[E13A]Pnc1a] | 8 | 61
17 | DCRYMFGNCEKDEDCCKHLGCKRKMKYCAWDFTFT (modifications not checked) [[D8N]Pnc1a] | > 30 | > 1000
18 | DCRYMFGDCEKDEDCCKHLGCKRKMKYCAADFTFT (modifications not checked) [[W30A]Pnc1a] | > 30 | 

Molecular target: hNav1.1 (human), P35498
Test: cell-based or functional assay

Row | Binder | IC50, membrane potential assay [µM] | Selectivity for Nav1.7, membrane potential assay [fold]
19 | SDCRYMFGDCEKDEDCCKHLGCKRKMKYCAWDFTFT (modifications not checked) [S0-Pnc1a] | 9 | 32
20 | DCRYMFGDCEKDEDCCKHLGCKKKMKYCAWDFTFT (modifications not checked) [[R23K]Pnc1a] | 8 | 33
21 | DCRYMFGDCEKDKDCCKHLGCKRKMKYCAWDFTFT (modifications not checked) [[E13K]Pnc1a] | 0.83 | 9
22 | DCRYMFGDCEKDADCCKHLGCKRKMKYCAWDFTFT (modifications not checked) [[E13A]Pnc1a] | 4 | 29
23 | DCRYMFGNCEKDEDCCKHLGCKRKMKYCAWDFTFT (modifications not checked) [[D8N]Pnc1a] | 0.349 | 14
24 | DCRYMFGDCEKDEDCCKHLGCKRKMKYCAADFTFT (modifications not checked) [[W30A]Pnc1a] | 15 | 2

Molecular target: hNav1.7 (human), Q15858
Test: cell-based or functional assay

Row | Binder | IC50, membrane potential assay [µM] | Selectivity for Nav1.7, membrane potential assay [fold]
25 | SDCRYMFGDCEKDEDCCKHLGCKRKMKYCAWDFTFT (modifications not checked) [S0-Pnc1a] | 0.282 | 1
26 | DCRYMFGDCEKDEDCCKHLGCKKKMKYCAWDFTFT (modifications not checked) [[R23K]Pnc1a] | 0.251 | 1
27 | DCRYMFGDCEKDKDCCKHLGCKRKMKYCAWDFTFT (modifications not checked) [[E13K]Pnc1a] |  | 1
28 | DCRYMFGDCEKDADCCKHLGCKRKMKYCAWDFTFT (modifications not checked) [[E13A]Pnc1a] | 0.139 | 1
29 | DCRYMFGNCEKDEDCCKHLGCKRKMKYCAWDFTFT (modifications not checked) [[D8N]Pnc1a] | 0.024 | 1
30 | DCRYMFGDCEKDEDCCKHLGCKRKMKYCAADFTFT (modifications not checked) [[W30A]Pnc1a] | 7 | 1

Molecular target: hNav1.4 (human), P35499
Test: cell-based or functional assay

Row | Binder | IC50, membrane potential assay [µM] | Selectivity for Nav1.7, membrane potential assay [fold]
31 | SDCRYMFGDCEKDEDCCKHLGCKRKMKYCAWDFTFT (modifications not checked) [S0-Pnc1a] | 11 | 40
32 | DCRYMFGDCEKDEDCCKHLGCKKKMKYCAWDFTFT (modifications not checked) [[R23K]Pnc1a] | 10 | 40
33 | DCRYMFGDCEKDKDCCKHLGCKRKMKYCAWDFTFT (modifications not checked) [[E13K]Pnc1a] | 2 | 27
34 | DCRYMFGDCEKDADCCKHLGCKRKMKYCAWDFTFT (modifications not checked) [[E13A]Pnc1a] | 5 | 36
35 | DCRYMFGNCEKDEDCCKHLGCKRKMKYCAWDFTFT (modifications not checked) [[D8N]Pnc1a] | 0.852 | 35
36 | DCRYMFGDCEKDEDCCKHLGCKRKMKYCAADFTFT (modifications not checked) [[W30A]Pnc1a] | 12 | 2

Molecular target: hNav1.3 (human), Q9NY46
Test: cell-based or functional assay

Row | Binder | IC50, membrane potential assay [µM] | Selectivity for Nav1.7, membrane potential assay [fold]
37 | SDCRYMFGDCEKDEDCCKHLGCKRKMKYCAWDFTFT (modifications not checked) [S0-Pnc1a] | 6 | 22
38 | DCRYMFGDCEKDEDCCKHLGCKKKMKYCAWDFTFT (modifications not checked) [[R23K]Pnc1a] | 5 | 19
39 | DCRYMFGDCEKDKDCCKHLGCKRKMKYCAWDFTFT (modifications not checked) [[E13K]Pnc1a] | 6 | 66
40 | DCRYMFGDCEKDADCCKHLGCKRKMKYCAWDFTFT (modifications not checked) [[E13A]Pnc1a] | 2 | 18
41 | DCRYMFGNCEKDEDCCKHLGCKRKMKYCAWDFTFT (modifications not checked) [[D8N]Pnc1a] | 3 | 118
42 | DCRYMFGDCEKDEDCCKHLGCKRKMKYCAADFTFT (modifications not checked) [[W30A]Pnc1a] | 11 | 2

Molecular target: hNav1.8 (human), Q9Y5Y9
Test: cell-based or functional assay

Row | Binder | IC50, membrane potential assay [µM] | Selectivity for Nav1.7, membrane potential assay [fold]
43 | SDCRYMFGDCEKDEDCCKHLGCKRKMKYCAWDFTFT (modifications not checked) [S0-Pnc1a] | > 30 | > 107
44 | DCRYMFGDCEKDEDCCKHLGCKKKMKYCAWDFTFT (modifications not checked) [[R23K]Pnc1a] | > 30 | > 120
45 | DCRYMFGDCEKDKDCCKHLGCKRKMKYCAWDFTFT (modifications not checked) [[E13K]Pnc1a] | > 30 | > 300
46 | DCRYMFGDCEKDADCCKHLGCKRKMKYCAWDFTFT (modifications not checked) [[E13A]Pnc1a] | > 30 | > 217
47 | DCRYMFGNCEKDEDCCKHLGCKRKMKYCAWDFTFT (modifications not checked) [[D8N]Pnc1a] | > 30 | > 1000
48 | DCRYMFGDCEKDEDCCKHLGCKRKMKYCAADFTFT (modifications not checked) [[W30A]Pnc1a] | > 30 | 4

Source: patent publication US20190359662A1
